A mixed list of measured activities; the numbers were collected in NIAID ChemDB.

Shared fields: toxicity to cultured cells; cell line: MT-2; endpoint: CC50

CCn: concentration that lowers growth or viability of the cells by n%. Conditions beyond the fields shown may differ between rows.

{"structure": "Cc1c(O)cccc1C(=O)N[C@@H](CSc1ccccc1)[C@H](O)CN1C[C@H]2CCCC[C@H]2C[C@H]1C(=O)NC(C)(C)C", "read by": "neutral red", "result": "155 µM"}
{"structure": "CCCCCCCCCCCCCCCCOCCCOP(=O)(O)COCCn1cc(F)c(N)nc1=O", "read by": "propidium iodide", "result": "24 µM"}
{"structure": "O=c1[nH]cnc2c1ncn2[C@H]1CC[C@@H](CO)O1", "result": ">100 µM"}
{"structure": "Nc1ccn([C@H]2CC[C@@H](CO)O2)c(=O)n1", "result": "10 µM"}
{"structure": "CCCc1cc(=O)oc2c3c(c4c(c12)OC(C)(C)C=C4)O[C@@H](C)[C@H](C)[C@H]3O", "result": ">1 µg/mL"}
{"structure": "Cc1cn([C@H]2C=C[C@@H](CO)O2)c(=O)[nH]c1=O", "read by": "neutral red", "result": "564 µM"}
{"structure": "O=c1cc(-c2ccc(O)c(O)c2)oc2cc(O[C@@H]3O[C@H](CO)[C@@H](O)[C@H](O)[C@H]3OS(=O)(=O)O)cc(O)c12", "result": ">800 µM"}
{"structure": "Cc1cn([C@H]2C[C@H](N=[N+]=[N-])[C@@H](CO)O2)c(=O)[nH]c1=O", "result": ">100 µM"}
{"structure": "CCCCCCCCCCCCCCCCOCCCOP(=O)(O)CO[C@H](CO)Cn1cc(F)c(=O)[nH]c1=O", "read by": "propidium iodide", "result": "35 µM"}
{"structure": "Nc1ccn([C@H]2CC[C@@H](CO)O2)c(=O)n1", "read by": "neutral red", "result": "119 µM"}
{"structure": "CCCCCCCCCCCCCCCCOCCCOP(=O)(O)COCCn1cc(F)c(=O)[nH]c1=O", "read by": "propidium iodide", "result": "36.5 µM"}
{"structure": "O=c1[nH]cnc2c1ncn2[C@H]1CC[C@@H](CO)O1", "read by": "neutral red", "result": "985 µM"}
{"structure": "O=c1[nH]c(=O)n(C[C@@H](CO)OCP(=O)(O)O)cc1F", "read by": "propidium iodide", "result": ">100 µM"}
{"structure": "COC(=O)[C@H](C)NP(=O)(OC[C@H]1C/C1=C/n1cnc2c(=O)[nH]c(N)nc21)Oc1ccccc1", "result": "76 µM"}
{"structure": "CCCCCCCCCCCCCCCCOCCCOP(=O)(O)CO[C@H](CO)Cn1cnc2c(N)nc(N)nc21", "read by": "propidium iodide", "result": "68 µM"}
{"structure": "O=C(O)c1cn(C2CC2)c2cc(N3CCNCC3)c(F)cc2c1=O", "read by": "ATP", "result": ">100 µM"}
{"structure": "CC(C)Nc1cccnc1N1CCN(C(=O)c2cc3cc(NS(C)(=O)=O)ccc3[nH]2)CC1", "read by": "neutral red", "result": "1654 µM"}
{"structure": "Nc1nc2c(ncn2CCOCP(=O)(O)O)c(=O)[nH]1", "read by": "propidium iodide", "result": "2.5 µM"}

The last 2 rows once more:

CC(C)Nc1cccnc1N1CCN(C(=O)c2cc3cc(NS(C)(=O)=O)ccc3[nH]2)CC1 ; read by: neutral red ; result: 1654 µM
Nc1nc2c(ncn2CCOCP(=O)(O)O)c(=O)[nH]1 ; read by: propidium iodide ; result: 2.5 µM